PubChem BioAssay AID624099, ICCB-Longwood – 2012
Test: 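Host factors E2 relies on to silence an HPV18 LCR reporter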 (primary screen). System: human C33A cervical carcinoma cells (HPV-negative) stably expressing BPV1 E2 and an HPV18 LCR luciferase reporter. Reagent: siRNA pool against human genes, 40 nM. Timing: 72 h. Detection: 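HPV18 LCR reporter light per well, converted to plate-wise z-scores that exclude control wells, and averaged over triplicate plates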. Reading the numbers: mean z-score and z-score: higher = stronger reporter signal, weaker E2 silencing. Hit rule: 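Mean z ≥ 2 together with z ≥ 2 in two or more of the three replicates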.
The deposit covers about 21,000 reagents; this is an unselected part. Over the whole deposit, 497 (2.4%) were called active. 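Higher z means weaker E2 silencing; only reporter increases were scored, and knock-downs that hurt cell survival may mask genuine repressor factors.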 A number with no mark means an inactive call.

Knock-down of CD300E (CD300e molecule) resulted in: mean z-score -0.03; z-score, replicate A = -0.07; z-score, replicate B = 0; z-score, replicate C = -0.03.
Against KAT14 (lysine acetyltransferase 14) the deposit lists mean z-score 1.29; z-score, replicate A = 1.36; z-score, replicate B = 1.53; z-score, replicate C = 0.99.
After knock-down of CTNND1 (catenin delta 1), the screen gave mean z-score 1.48; z-score, replicate A = 1.68; z-score, replicate B = 1.45; z-score, replicate C = 1.32.
Knock-down of IGHV3OR16-12 (immunoglobulin heavy variable 3/OR16-12 (non-functional)) came out at: mean z-score -1.16; z-score, replicate A = -1.12; z-score, replicate B = -1.13; z-score, replicate C = -1.24.
TDRD12 (tudor domain containing 12) showed mean z-score -1.45; z-score, replicate A = -1.31; z-score, replicate B = -1.26; z-score, replicate C = -1.79.
RAB6B (RAB6B, member RAS oncogene family) gave mean z-score 1.31; z-score, replicate A = 1.1; z-score, replicate B = 1.26; z-score, replicate C = 1.56.
With knock-down of FES (FES proto-oncogene, tyrosine kinase) the results were mean z-score -1.22; z-score, replicate A = -0.93; z-score, replicate B = -1.17; z-score, replicate C = -1.55.
For NDUFS7 (NADH:ubiquinone oxidoreductase core subunit S7), the entry reads mean z-score 0.65; z-score, replicate A = 0.63; z-score, replicate B = 0.51; z-score, replicate C = 0.8.
Silencing of QPCTL (glutaminyl-peptide cyclotransferase like) gave: mean z-score -1.11; z-score, replicate A = -1.11; z-score, replicate B = -1.07; z-score, replicate C = -1.14.
For TMPRSS13 (transmembrane serine protease 13), the entry reads mean z-score -0.67; z-score, replicate A = -0.75; z-score, replicate B = -0.78; z-score, replicate C = -0.47.
Against PPIAP26 (peptidylprolyl isomerase A pseudogene 26), the entry reads mean z-score 0.58; z-score, replicate A = 0.11; z-score, replicate B = 0.63; z-score, replicate C = 0.99.
Against ANKRD20A11P (ankyrin repeat domain 20 family member A11, pseudogene), the values are mean z-score -0.07; z-score, replicate A = 0.06; z-score, replicate B = 0.31; z-score, replicate C = -0.59.
PRSS3 (serine protease 3) gave mean z-score 1.62; z-score, replicate A = 1.72; z-score, replicate B = 1.84; z-score, replicate C = 1.31.
After knock-down of NRBF2 (nuclear receptor binding factor 2), the record shows mean z-score 0.64; z-score, replicate A = 0.75; z-score, replicate B = 0.45; z-score, replicate C = 0.73.
SAGE1 (sarcoma antigen 1) scored mean z-score -0.08; z-score, replicate A = -0.02; z-score, replicate B = -0.07; z-score, replicate C = -0.16.
CCNP (cyclin P) scored mean z-score -1.53; z-score, replicate A = -1.41; z-score, replicate B = -1.68; z-score, replicate C = -1.51.
After knock-down of OTOP2 (otopetrin 2) the results were mean z-score -0.07; z-score, replicate A = -0.03; z-score, replicate B = -0.21; z-score, replicate C = 0.03.
Against NNAT (neuronatin), the values are mean z-score 0.29; z-score, replicate A = 0.27; z-score, replicate B = 0.42; z-score, replicate C = 0.19.
Knock-down of GPR37 (G protein-coupled receptor 37) gave: mean z-score -0.26; z-score, replicate A = -0.5; z-score, replicate B = -0.16; z-score, replicate C = -0.11.
After knock-down of CD8A (CD8 subunit alpha), the record shows mean z-score -0.16; z-score, replicate A = -0.03; z-score, replicate B = -0.12; z-score, replicate C = -0.34.
RPL6P22 (ribosomal protein L6 pseudogene 22) scored mean z-score -5.77; z-score, replicate A = -5.71; z-score, replicate B = -5.85; z-score, replicate C = -5.75.

Reprinted from the listing, 3 entries:
FES (FES proto-oncogene, tyrosine kinase) — mean z-score: -1.22; z-score, replicate A: -0.93; z-score, replicate B: -1.17; z-score, replicate C: -1.55
NDUFS7 (NADH:ubiquinone oxidoreductase core subunit S7) — mean z-score: 0.65; z-score, replicate A: 0.63; z-score, replicate B: 0.51; z-score, replicate C: 0.8
QPCTL (glutaminyl-peptide cyclotransferase like) — mean z-score: -1.11; z-score, replicate A: -1.11; z-score, replicate B: -1.07; z-score, replicate C: -1.14
